Source: patent US5536648
For at least one entry, the source does not settle the construct or the ends of the probe.

Tested on: GST-GCN4 3.12 (partial GCN4 including C-terminal DNA-binding region) (Saccharomyces cerevisiae)
Experiment: binding assay
Settings: microtitre plate capture, binds with 1 ug/ml carrier human DNA, purified recombinant protein, label: 5' biotin on primer c (CATAGCAGGAACTACTAGTA)

Sequence	binding result (MTPBS-Tween, 20 C)	binding result (oligo called d2 in results, d1 in methods)
AAGTGACTCAAGTGACTCAATCCTTGTCTTATGTCCAGAA (double strand) [HIV p24 c-d PCR product with GCN4 site (primer d shown)]	binds	
AGCGGATGACTCATTTTTTTTTCCTTGTCTTATGTCCAGAA (double strand)		binds
